Consider twelve molecules from the supplement of paper PMC9931576.

To fix the notation:
B1: BD55-6526 (protein)
chain 1: QVHLVESGGGLVKPGGSLRLSCAASGFIFSDYYMSWVRQAPGKGLEWISYISTSSTDTYYADSVQGRFTISRDDAKNSLYLQMNSLRAEDTAVYYCARDFVEYDFLGAYYYMDVWGKGTTVTVSS
chain 2: DLQMTQSPSTLSASVGDRVTITCRASQSISTWLAWYQQKPGKAPKLLIYKASNLESGVPSRFSGSGSGTEFTLTISSLQPDDFATYYCQQYNIVSWTFGQGTKVEIK
B2: BD55-6539 (protein)
chain 1: EVQLLESGGGLVQPGGSLRLSCAASGFTFMRYAMSWVRQAPGKGLEWVSSMSGSGGNTYYADSVKGRFTISRDNSKNTLYLQMSSLRAEDTAVYYCVKDWSHYYDLSGYYPWVFDSWGQGTLVTVSS
chain 2: DIQMTQSPSSLSASVGDRVTITCRASQTINSYLHWYQQKPGKAPRLLIYAASSLQSGVPSRFSGSGSGTDFTLTISSLQPEDFATYYCQQSYSTPTFGQGTKVEIK
B3: BD55-6541 (protein)
chain 1: EVQLLESGGGLVQPGGSLRLSCAASGFTFSTYAMSWVRQGPGNGLDWIAAITADGGGSFYADSVKGRFTVSRDTSKNTLYLQMNSLRVEDTAVYYCAREYSGHDQVFDYWGQGALVTVSS
chain 2: DIQMTQSPSSLSASVGDRVTITCRAGQSISRYLNWYQQKAGKAPKLLIYGSSSLQSGVPSRFSGSGSGTDFTLTISSLQPEDFATYYCQQSYTSPSITFGQGTRLEIK
B4: BD55-6550 (protein)
chain 1: QVTLKESGPVLVKPTETLTLTCTVSEFSLNKVKMGVSWIRQPPGQALEWLAHIFSDDEESYNTSLKSRLTISKGASKSQVVLTMTNMDPVDTATYYCARMTFVATPLGYFYYMDVWGEGAPVTVSS
chain 2: DIQMTQSPSTLSASVGDRVTITCRASQSVNVWLAWYQQKPGKAPKLLIYKASSLEDGVPSRFSGSGSGTEFTLTISSLQPDDFATYYCQQYNGYFFTFGQGTKLEIK
B5: BD55-6553 (protein)
chain 1: QVHLQQWGAGLLKPSETLSLTCAVYGGSISGSNYYWSWIRQPPGKGLEWIGEINHTGSTDYSPSLKSRVTMSLDTSKNQFSLNLSSVTAADTAMYYCARGLWYYYGSVSGYYYGMDVWGQGTTVTVSS
chain 2: QSVLTQPPSVSAAPGQKVTISCSRSGSNIGNNYVSWYQQLPGTAPKLLIYDNDKRPSGIPDRFSASNSGTSATLGISGLQTGDEADYYCGTWDSSLGARYVFGTGTKVTVL
B6: BD55-6543 (protein)
chain 1: QLQLQESGPGLVKPSETLSLTCTVSGGSMRSSFYWGWIRQPPGKGLEWIGTLYTSGSTYYNPSVKSRITISEDTSKNQFSLNLRSLTAADSAVYYCVRVRIISGYSSDWQGETFYFDLWGRGTLVTVSS
chain 2: SYVLTEPPSVSVAPGATATITCGGTNLGSQSVHWYQQKPGQAPVLVVFENSARPSTIPERFSGSNSGNTATLTISRVEAGDEADYYCQVWDSRSDLVLFGGGTKLTVL
B7: BD55-6514 (protein)
chain 1: EVQLVESGGGLVQPGRSLRLSCAASGFTFDDYAMHWVRQAPGKGLEWVAGISWNSGDIAYADSVKGRFTISRDNAKNSLYLQMNSLRAEDTALYYCVKDPLGEFLYFFDYWGQGALVTVSS
chain 2: EIVMTQSPATLSVSPGERATLSCRASQSINTNLAWYQQKPGQAPRLLIYGGSSRATGVPARFSGSGSGTEFTLTISSLQSEDFAIYYCQHYNNWPLSYTFGQGTKLQIK
B8: BD55-6537 (protein)
chain 1: EVHLEESGGGLVQPGKPLRLSCAASGFEFSSYSMNWVRQAPGKGLEWVAYVSSSGSTKQYGDSVRGRFTISRDNAKNSLFLQMNSLRDEDTAVYYCVRKKGSHDILTGYWHRDVFEIWGQGTKVIVSS
chain 2: DIQMTQSPSTLSASVGERVTITCRASQGISRWLAWYQQKPGRAPNLLIYETSSLESGVPSRFSGSGSGTVFTLTITSLQPDDFATYYCQQYYSDSRTFGQGTKVEIK
B9: BD55-6548 (protein)
chain 1: QVTLKESGPVLVKPTETLTLTCTVSGFSLSNTRMGVSWIRQPPGKTLEWLAHISSNDAKSYSTSLKSRLTISMDTSKSQVVLTMTNMDPVDTATYYCARQTYGYSSGWYEDYWGQGTLVTVSS
chain 2: DIQMTQSPSSLSASVGDRVSLTCRASQSISSYLNWYQQKPGKAPKLLIHAASSLQSGVPSRFSGSGSGTDFTLTISSLQPEDFATYYCHQSYSTPPTFGQGTKLEIK
B10: BD55-6516 (protein)
chain 1: EVQVVESGGGLVKPGGSLRLSCAGSGFTFNYAWMNWVRQAPGKGLEWVGRIKSETGGGTIDYAAPVRGRFIISRDDSKNMVYLHMNSLKTEDTAVYYCTTEATVTTWDALDIWGQGTLVTVSA
chain 2: QSVLTQPPSASGTSGQRVTISCSGSSSNIGSNSVNWYQQIPGTAPKLLIYRNNQRPSGVPDRFFASKSGTSASLAISGLHSDDEADYYCAAWDDRLNGFVFGTATKVTVL
B11: BD55-1263 (protein)
chain 1: QVQVVQSGGEVKKPGASVKVSCKTSGYNFTNYGISWFRQAPGQGLEWMGWISPYNGNTKYVRKFQGRVTMITDTSSTTAYMELRSLRSDDTAFYYCARDAELGGRFDPWGQGTLVTVSS
chain 2: QSALTQPASVSGSPGQSITISCTGASSDVGSYKLVSWYQQHPGKAPKLLIYEVSNRPSGVSNRVSGSKSGNTASLTISGLQAEDEADYYCCAYAGSSTWVFGGGTKLTVL
B12: BD55-6544 (protein)
chain 1: QITLKESGPTLVKPTQTLTLTCTFSGFSLTTSGVGVGWIRQPPGKALEWLALIYWDDDKRYSPSLKTRITITKGTSKNQVVLTLTNMDPVDTATYYCAHMARPRGLPINPSWFDPWGQGTLVTVSS
chain 2: QSVLTQPPSASGTPGQRVTISCSGSSSNIGSNTVNWYQQLPGTAPKLLIYSHNQRPSGVPDRFSGSKSGSSASLAISGLQSGDEANYYCSTWDDSLNGPVFGGGTKLTVL

Human monoclonal antibodies against the spike receptor-binding domain (heavy:light variable regions). IC50 against pseudoviruses bearing the spike of naturally observed variants; lower = stronger; >10 µg/ml means not reached at the top dose. No active / inactive call. The stated detection limit is 0.0005 µg/ml; values near or below 0.001 µg/ml lie at the floor of the assay.

The first test has as its target SARS-CoV-2 Omicron BA.1 spike pseudovirus. Put plainly: pseudovirus neutralization IC50; higher = weaker neutralization. How it is done: (§1)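 Single-round VSV luciferase pseudovirus mixed with antibody dilutions for 1 h and put on Huh-7 cells for about a day; IC50 from the dose curve.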
As for B1, the “pseudovirus neutralization IC50” value is greater than 10 µg/mL.

As to B2, the “pseudovirus neutralization IC50” value is greater than 10 µg/mL.

As for B3, the “pseudovirus neutralization IC50” value is greater than 10 µg/mL.

B4: the “pseudovirus neutralization IC50” value was greater than 10 µg/mL.

As to B5, the “pseudovirus neutralization IC50” value is greater than 10 µg/mL.

Consider B6, for which the “pseudovirus neutralization IC50” value was greater than 10 µg/mL.

For the molecule B7, the “pseudovirus neutralization IC50” value is greater than 10 µg/mL.

On to B8, for which the “pseudovirus neutralization IC50” value was greater than 10 µg/mL.

Regarding B9, the “pseudovirus neutralization IC50” value was greater than 10 µg/mL.

For B10, the “pseudovirus neutralization IC50” value was greater than 10 µg/mL.

Turning to B11, the “pseudovirus neutralization IC50” value was greater than 10 µg/mL.

With B12, the “pseudovirus neutralization IC50” value is greater than 10 µg/mL.

A further test deals with SARS-CoV-2 Omicron BA.2 spike pseudovirus. Described as above. As to the method:
as §1
Regarding B1, the “pseudovirus neutralization IC50” value was greater than 10 µg/mL.

Regarding B2, the “pseudovirus neutralization IC50” value was greater than 10 µg/mL.

For B3, the “pseudovirus neutralization IC50” value was greater than 10 µg/mL.

In the case of B4, the “pseudovirus neutralization IC50” value is greater than 10 µg/mL.

Consider B5, for which the “pseudovirus neutralization IC50” value was greater than 10 µg/mL.

For B6, the “pseudovirus neutralization IC50” value is greater than 10 µg/mL.

In the case of B7, the “pseudovirus neutralization IC50” value was greater than 10 µg/mL.

As to B8, the “pseudovirus neutralization IC50” value is greater than 10 µg/mL.

Consider B9, for which the “pseudovirus neutralization IC50” value is greater than 10 µg/mL.

For B10, the “pseudovirus neutralization IC50” value is greater than 10 µg/mL.

As for B11, the “pseudovirus neutralization IC50” value was greater than 10 µg/mL.

As for B12, the “pseudovirus neutralization IC50” value is greater than 10 µg/mL.

In the next test the target is SARS-CoV-2 Omicron BA.2.75 spike pseudovirus. Described as above. As to the method:
as §1
On to B1, for which the “pseudovirus neutralization IC50” value was greater than 10 µg/mL.

Regarding B2, the “pseudovirus neutralization IC50” value is greater than 10 µg/mL.

On to B3, for which the “pseudovirus neutralization IC50” value was greater than 10 µg/mL.

On to B4, for which the “pseudovirus neutralization IC50” value was greater than 10 µg/mL.

On to B5, for which the “pseudovirus neutralization IC50” value was greater than 10 µg/mL.

As to B6, the “pseudovirus neutralization IC50” value was greater than 10 µg/mL.

Turning to B7, the “pseudovirus neutralization IC50” value was greater than 10 µg/mL.

Turning to B8, the “pseudovirus neutralization IC50” value is greater than 10 µg/mL.

Regarding B9, the “pseudovirus neutralization IC50” value was greater than 10 µg/mL.

With B10, the “pseudovirus neutralization IC50” value is greater than 10 µg/mL.

Consider B11, for which the “pseudovirus neutralization IC50” value was greater than 10 µg/mL.

As for B12, the “pseudovirus neutralization IC50” value was greater than 10 µg/mL.

For another test, the target named is SARS-CoV-2 Omicron BA.5 spike pseudovirus. The description is as above. How it is done: as §1
As to B1, the “pseudovirus neutralization IC50” value is greater than 10 µg/mL.

Consider B2, for which the “pseudovirus neutralization IC50” value was greater than 10 µg/mL.

Take B3: the “pseudovirus neutralization IC50” value was greater than 10 µg/mL.

In the case of B4, the “pseudovirus neutralization IC50” value is greater than 10 µg/mL.

For the molecule B5, the “pseudovirus neutralization IC50” value is greater than 10 µg/mL.

In the case of B6, the “pseudovirus neutralization IC50” value was greater than 10 µg/mL.

In the case of B7, the “pseudovirus neutralization IC50” value is greater than 10 µg/mL.

As to B8, the “pseudovirus neutralization IC50” value is greater than 10 µg/mL.

In the case of B9, the “pseudovirus neutralization IC50” value was greater than 10 µg/mL.

With B10, the “pseudovirus neutralization IC50” value was greater than 10 µg/mL.

On to B11, for which the “pseudovirus neutralization IC50” value was greater than 10 µg/mL.

With B12, the “pseudovirus neutralization IC50” value is greater than 10 µg/mL.

Another test addresses SARS-CoV-2 Omicron BQ.1.1 spike pseudovirus. The description is as above. As to the method: as §1
Turning to B1, the “pseudovirus neutralization IC50” value is greater than 10 µg/mL.

For the molecule B2, the “pseudovirus neutralization IC50” value is greater than 10 µg/mL.

B3: the “pseudovirus neutralization IC50” value is greater than 10 µg/mL.

On to B4, for which the “pseudovirus neutralization IC50” value was greater than 10 µg/mL.

As to B5, the “pseudovirus neutralization IC50” value was greater than 10 µg/mL.

As for B6, the “pseudovirus neutralization IC50” value was greater than 10 µg/mL.

With B7, the “pseudovirus neutralization IC50” value is greater than 10 µg/mL.

For the molecule B8, the “pseudovirus neutralization IC50” value is greater than 10 µg/mL.

B9: the “pseudovirus neutralization IC50” value is greater than 10 µg/mL.

Turning to B10, the “pseudovirus neutralization IC50” value is greater than 10 µg/mL.

B11: the “pseudovirus neutralization IC50” value was greater than 10 µg/mL.

With B12, the “pseudovirus neutralization IC50” value is greater than 10 µg/mL.

The next test addresses SARS-CoV-2 Omicron XBB spike pseudovirus. Described as above. As to the method:
as §1
Take B1: the “pseudovirus neutralization IC50” value is greater than 10 µg/mL.

Regarding B2, the “pseudovirus neutralization IC50” value is greater than 10 µg/mL.

B3: the “pseudovirus neutralization IC50” value was greater than 10 µg/mL.

As for B4, the “pseudovirus neutralization IC50” value was greater than 10 µg/mL.

Turning to B5, the “pseudovirus neutralization IC50” value was greater than 10 µg/mL.

On to B6, for which the “pseudovirus neutralization IC50” value was greater than 10 µg/mL.

As to B7, the “pseudovirus neutralization IC50” value is greater than 10 µg/mL.

Regarding B8, the “pseudovirus neutralization IC50” value is greater than 10 µg/mL.

B9: the “pseudovirus neutralization IC50” value is greater than 10 µg/mL.

Consider B10, for which the “pseudovirus neutralization IC50” value was greater than 10 µg/mL.

On to B11, for which the “pseudovirus neutralization IC50” value is greater than 10 µg/mL.

Consider B12, for which the “pseudovirus neutralization IC50” value was greater than 10 µg/mL.

A further test deals with SARS-CoV-2 early D614G spike pseudovirus. The description is as above. How it is done:
as §1
Take B1: the “pseudovirus neutralization IC50” value was greater than 10 µg/mL.

As to B2, the “pseudovirus neutralization IC50” value is greater than 10 µg/mL.

B3: the “pseudovirus neutralization IC50” value was found to be 5.09 µg/mL.

Consider B4, for which the “pseudovirus neutralization IC50” value is 2.21 µg/mL.

As to B5, the “pseudovirus neutralization IC50” value is greater than 10 µg/mL.

B6: the “pseudovirus neutralization IC50” value came to 1.19 µg/mL.

On to B7, for which the “pseudovirus neutralization IC50” value turned out to be 0.289 µg/mL.

In the case of B8, the “pseudovirus neutralization IC50” value worked out at 1.96 µg/mL.

Turning to B9, the “pseudovirus neutralization IC50” value was greater than 10 µg/mL.

As to B10, the “pseudovirus neutralization IC50” value was greater than 10 µg/mL.

For B11, the “pseudovirus neutralization IC50” value was 0.001 µg/mL.

With B12, the “pseudovirus neutralization IC50” value is greater than 10 µg/mL.
